System: panel of human tumour cell lines (NCI 60 cell-line panel)
Conditions: preliminary single dose (10 μM) testing
From the text: Protocols of testing at the DTP, NCI have been described elsewhere.

`O=C1C2=C3C4=[N+](CCc5c[nH]c1c54)C1(O)CCC3(CCN2)CC1` [Compound 7, Discorhabdin C Hydrogenation Product] was tested, and the “delta of mean growth” value was 37.53 and the range of growth was 59.64.

From article PMC7460216 (Marine Drugs, 2020)
